Laboratory results from patent publication US5707620A (priority 1995, dated 1998).

Target: Lys-gingipain (Porphyromonas gingivalis, UniProt B2RLK2, A715G/D467N/G568E/I573V/L455V)
Test: Kinetic constants for the hydrolysis of synthetic substrates by Lys-gingipain
Type: biochemical

Structure (SMILES) | Km [µM]
CC(C)C[C@H](NC(=O)[C@H](N)C(C)C)C(=O)N[C@@H](CCCCN)C(=O)Nc1ccc([N+](=O)[O-])cc1 [HD--Val--Leu--Lys--pNa, D-Val-Leu-Lys-pNA] | 200
CC(C)[C@@H](N)C(=O)N[C@@H](Cc1ccccc1)C(=O)N[C@@H](CCCCN)C(=O)Nc1ccc([N+](=O)[O-])cc1 [HD--Val--Phe--Lys--pNa, H-D-Val-Phe-Lys-pNa] | 126
Cc1ccc(S(=O)(=O)NCC(=O)N2CCC[C@H]2C(=O)N[C@@H](CCCCN)C(=O)Nc2ccc([N+](=O)[O-])cc2)cc1 [N-p-tosyl-Gly--Pro--Lys--pNa, N-p-tosyl-Gly-Pro-Lys-pNa] | 50
NCCCC[C@H](NC(=O)OCc1ccccc1)C(=O)Nc1ccc([N+](=O)[O-])cc1 [Z--L--Lys--pNa, Z-L-Lysine-p-Nitroanilide] | 180
